Anti-infective test results gathered from many reports (values: NIAID ChemDB through PubChem).

Common to all: growth or infection tests; organism: Mycobacterium avium complex; read-out: MIC

Two numbers with a dash give a range or band. Lines come from different laboratories, so protocols vary.

structure	strain	value
CC[C@H]1OC(=O)[C@H](C)[C@@H](OC(=O)CC2CCCCC2)[C@H](C)[C@@H](O[C@@H]2O[C@H](C)C[C@H](N(C)C)[C@H]2O)C(C)(O)C[C@@H](C)/C(=N\OCCCOc2ccccc2)[C@H](C)[C@@H](O)[C@]1(C)O	20096 (clarithromycin-resistant)	6.25 µg/mL
COc1ccc(C)cc1NCc1cnc2nc(N)nc(N)c2c1C	NJ3404	≤0.13 µg/mL
CCc1nc(N)nc(N)c1-c1ccc(Cl)cc1	DW23	64 µg/mL
Cc1cccc(C)c1Sc1nc(Cl)nc2nc[nH]c12	NJ211	>12.8 µg/mL
Cc1c(CNc2cnc3ccccc3c2)cnc2nc(N)nc(N)c12	NJ211	≤0.13 µg/mL
CC[C@H]1OC(=O)[C@H](C)[C@@H](O[C@H]2C[C@@](C)(OC)[C@@H](O)[C@H](C)O2)[C@H](C)[C@@H](O[C@@H]2O[C@H](C)C[C@H](N(C)C)[C@H]2O)[C@](C)(O)C[C@@H](C)/C(=N\OC)[C@H](C)[C@@H](O)[C@]1(C)O	20092 (clarithromycin-resistant)	>50 µg/mL
CO[C@H]1/C=C/O[C@@]2(C)Oc3c(C)c(O)c4c(O)c(c5c(c4c3C2=O)NC2(CCN(CC(C)C)CC2)N=5)=NC(=O)/C(C)=C\C=C\[C@H](C)[C@H](O)[C@@H](C)[C@@H](O)[C@@H](C)[C@H](OC(C)=O)[C@@H]1C	N-238 (HIV-)	0.2 µg/mL
COc1ccc(C)c(NCc2cnc3nc(N)nc(N)c3c2C)c1	NJ168	≤0.13 µg/mL
CC[C@H]1OC(=O)[C@H](C)[C@@H](O[C@H]2C[C@@](C)(OC)[C@@H](O)[C@H](C)O2)[C@H](C)[C@@H](O[C@@H]2O[C@H](C)C[C@H](N(C)C)[C@H]2O)[C@](C)(OC)C[C@@H](C)C(=O)[C@H](C)[C@@H](O)[C@]1(C)O	20092 (clarithromycin-resistant)	>50 µg/mL
Cc1ccc(C)c(Sc2ccncc2)c1	NJ211	>12.8 µg/mL
CC1(C)N=C(N)N=C(N)N1OCCCOc1cc(Cl)c(Cl)cc1Cl	DW4	2 µg/mL
C[C@@H]1CN(c2c(F)c(N)c3c(=O)c(C(=O)O)cn(C4CC4)c3c2F)C[C@H](C)N1	Isolate 90-0738	2.5 µg/mL
CC(C)N=C(N)/N=C(\N)NOCCCOc1cc(Cl)c(Cl)cc1Cl	1317	32 µg/mL
Cc1c(CNc2ccc(Cl)cc2)cnc2nc(N)nc(N)c12	NJ168	≤0.13 µg/mL
CO[C@H]1/C=C/O[C@@]2(C)Oc3c(C)c(O)c4c(=O)c(c5oc6cc(N7CCN(CC(C)C)CC7)cc(=O)c6nc5c4c3=C2O)NC(=O)/C(C)=C\C=C\[C@H](C)[C@H](O)[C@@H](C)[C@@H](O)[C@@H](C)[C@H](OC(C)=O)[C@@H]1C	N-981 (HIV+)	0.1 µg/mL
CCCCCCO/N=C1\[C@H](C)CC(C)(O)[C@H](O[C@@H]2O[C@H](C)C[C@H](N(C)C)[C@H]2O)[C@@H](C)[C@H](OC2C[C@@](C)(OC)[C@@H](O)[C@H](C)O2)[C@@H](C)C(=O)O[C@H](CC)[C@@](C)(O)[C@H](O)[C@H]1C	20039 (clarithromycin-susceptible)	1.56 µg/mL
COc1ccc(NCc2cnc3nc(N)nc(N)c3c2C)cc1OC	NJ168	≤0.13 µg/mL
NNC(=O)c1ccncc1	N-976 (HIV+)	64 µg/mL
CC[C@H]1OC(=O)[C@H](C)[C@@H](O[C@H]2C[C@@](C)(OC)[C@@H](OC(C)=O)[C@H](C)O2)[C@H](C)[C@@H](O[C@@H]2O[C@H](C)C[C@H](N(C)C)[C@H]2O)C(C)(O)C[C@@H](C)/C(=N\OCC2CCCCC2)[C@H](C)[C@@H](O)[C@]1(C)O	20092 (clarithromycin-resistant)	6.25 µg/mL
Cc1ccccc1Sc1ncnc2nc[nH]c12	NJ211	>12.8 µg/mL
CCCCO/N=C1\[C@H](C)CC(C)(O)[C@H](O[C@@H]2O[C@H](C)C[C@H](N(C)C)[C@H]2O)[C@@H](C)[C@H](OC2C[C@@](C)(OC)[C@@H](O)[C@H](C)O2)[C@@H](C)C(=O)O[C@H](CC)[C@@](C)(O)[C@H](O)[C@H]1C	20092 (clarithromycin-resistant)	>50 µg/mL
Cc1c(CNc2cccc3ncccc23)cnc2nc(N)nc(N)c12	NJ211	≤0.13 µg/mL
CC[C@H]1OC(=O)[C@H](C)[C@@H](O[C@H]2C[C@@](C)(OC)[C@@H](OC(C)=O)[C@H](C)O2)[C@H](C)[C@@H](O[C@@H]2O[C@H](C)C[C@H](N(C)C)[C@H]2O)C(C)(O)C[C@@H](C)/C(=N\OCCSc2ccccc2)[C@H](C)[C@@H](O)[C@]1(C)O	20039 (clarithromycin-susceptible)	1.56 µg/mL
Cc1ccc(F)c(NCc2cnc3nc(N)nc(N)c3c2C)c1.O	NJ168	≤0.13 µg/mL
COc1ccc(Sc2nc(Cl)nc3nc[nH]c23)cc1	NJ211	>12.8 µg/mL
Cc1c(CNc2ccc3ccccc3c2)cnc2nc(N)nc(N)c12	NJ3404	≤0.13 µg/mL
Cc1ccccc1CSc1ncnc2nc[nH]c12	NJ211	>12.8 µg/mL
CCNNC(=O)O[C@H]1[C@H](O[C@@H]2[C@@H](C)[C@H](O[C@H]3C[C@@](C)(OC)[C@@H](OC(C)=O)[C@H](C)O3)[C@@H](C)C(=O)O[C@H](CC)[C@@](C)(O)[C@H](O)[C@@H](C)/C(=N/OCCCC3CCCCC3)[C@H](C)CC2(C)O)O[C@H](C)C[C@@H]1N(C)C	20092 (clarithromycin-resistant)	1.56 µg/mL
NNC(=O)c1ccncc1	13032	0.63–0.8 µg/mL
CC(=O)Nc1ccc(/C(C)=N\NC(N)=S)cc1	108	32 µg/mL

2 of the rows above, restated:

| structure | strain | value |
|---|---|---|
| CCc1nc(N)nc(N)c1-c1ccc(Cl)cc1 | DW23 | 64 µg/mL |
| CC(=O)Nc1ccc(/C(C)=N\NC(N)=S)cc1 | 108 | 32 µg/mL |